Results of unrelated studies side by side (data: NIAID ChemDB).

All rows: host cell toxicity; cells: HeLa; endpoint: CC50

CCn is the concentration with n% toxicity to the cells. Lines come from different laboratories, so protocols vary. An empty or dashed field is not shown. Two numbers with a dash give a range or band.

| smiles | read by | value |
|---|---|---|
| CCOC(=O)[C@@]1(C)CC[C@]2(C)CC[C@]3(C)C(=CC(=O)[C@@H]4[C@@]5(C)CC/C(=N\OCc6cccc(Cl)c6)C(C)(C)[C@@H]5CC[C@]43C)[C@@H]2C1 | MTT | 23.41 µM |
| CCOC(=O)c1ccc(OCCCCC(=O)c2ccc(C)s2)cc1 |  | >267 µM |
| CCOC(=O)c1cc(Cl)c(OCCCCC(=O)c2ccc(OC)cc2)c(Cl)c1 |  | 40 µM |
| CCOC(=O)[C@@]1(C)CC[C@]2(C)CC[C@]3(C)C(=CC(=O)[C@@H]4[C@@]5(C)CC/C(=N\OCc6ccccc6)C(C)(C)[C@@H]5CC[C@]43C)[C@@H]2C1 | MTT | 24.65 µM |
| CCOC(=O)c1c(N)c2cccnc2n(O)c1=O |  | <100 µM |
| CC1CN(C(=O)C(=O)c2c[nH]c3cccc(F)c23)CC(C)N1C(=O)c1ccccc1 | XTT | 200 µM |
| CCOC(=O)c1cc(Cl)c(OCCCCC(=O)c2ccc(Cl)cc2)c(Cl)c1 |  | 103 µM |
| COc1cnc(-c2nnnn2C)c2[nH]cc(C(=O)C(=O)N3CCN(C(=O)c4ccccc4)CC3)c12 | trypan blue | >100 µM |
| CCCC1CN(C(=O)c2ccccc2)CCN1C(=O)C(=O)c1c[nH]c2cccc(F)c12 | XTT | 94 µM |
| Cc1ccc(C(=O)CCCCOc2ccc(C#N)cc2)cc1 |  | 146 µM |
| COc1ccc(CNc2ccc(S(C)(=O)=O)cn2)cc1OC |  | >10 µg/mL |
| Nc1ncn(-c2ncc(F)c3c(C(=O)C(=O)N4CCN(C(=O)c5ccccc5)CC4)c[nH]c23)n1 | trypan blue | >100 µM |
| CC(Sc1ncnc2c1cnn2COCC(O)CO)C(N)=O |  | >400 µg/mL |
| CS(=O)(=O)c1ccc(Cc2ccc(Sc3ccccc3)cc2)nc1 |  | 2.5 µg/mL |
| COc1cnc(-c2cnccn2)c2[nH]cc(C(=O)C(=O)N3CCN(C(=O)c4ccccn4)[C@H](C)C3)c12 | trypan blue | >100 µM |
| COC1=C(OC)/C(=C/Cn2cnc3c(Cl)ncnc32)OC1=O |  | 23.37 µM |
| CCOC(=O)[C@@]1(C)CC[C@]2(C)CC[C@]3(C)C(=CC(=O)[C@@H]4[C@@]5(C)CC/C(=N\OCc6ccccc6Br)C(C)(C)[C@@H]5CC[C@]43C)[C@@H]2C1 | MTT | 69.71 µM |
| COC(=O)C(Cc1ccc(OCCCCC(=O)c2ccc(C)s2)cc1)NC(C)=O |  | 86 µM |
| Cn1cccc1C(=O)CCCCOc1ccc(C2=NCCO2)cc1 |  | >306 µM |
| O=C(CCCCOc1ccc(C2=NCCO2)cc1)c1ccc(F)cc1 |  | >293 µM |
| CS(=O)(=O)c1ccc(NCc2ccc(C(F)(F)F)cc2)nc1 |  | >10 µg/mL |
| CC(C)CC1CN(C(=O)C(=O)c2c[nH]c3cccc(F)c23)CCN1C(=O)c1ccccc1 | XTT | 69 µM |
| CCOC(=O)c1ccc(CO/N=C2\CC[C@]3(C)[C@H]4C(=O)C=C5[C@@H]6C[C@@](C)(C(=O)OCC)CC[C@]6(C)CC[C@@]5(C)[C@]4(C)CC[C@H]3C2(C)C)o1 | MTT | 67.36 µM |
| Cn1cc(C(=O)CCCCOc2ccc(C3=NCCO3)cc2)cc1C=O |  | >282 µM |
| COC1=C(OC)/C(=C/C(n2cnc3c(Cl)ncnc32)P(=O)(OC)OC)OC1=O |  | 28.14 µM |
| c1ccn(CCCCCOc2ccc(C3=NCCO3)cc2)c1 |  | 159 µM |
| C[C@H]1CN(C(=O)c2ccccc2)CCN1C(=O)C(=O)c1c[nH]c2cccc(F)c12 | XTT | >300 µM |
| O=c1cc(N2CCCC(F)C2)c2cccnc2n1O |  | <100 µM |
| CCCCCC1CN(C(=O)C(=O)c2c[nH]c3cccc(F)c23)CCN1C(=O)c1ccccc1 | XTT | 45 µM |
| Cc1cc(C(=O)CCCCOc2ccc(C3=NCCO3)cc2)c(C)n1C |  | 141 µM |
| O=C1N[C@@H](c2ccccc2)CNc2c1c(=O)n(O)c1ncccc21 |  | <100 µM |
| COc1cnc(-n2cnc(N)n2)c2[nH]cc(C(=O)C(=O)N3CCN(C(=O)c4ccccc4)[C@H](C)C3)c12 | trypan blue | >100 µM |
| COC1=C(OCc2ccc([N+](=O)[O-])cc2)C(=O)O/C1=C\Cn1cnc2c(Cl)ncnc21 |  | 20.18 µM |
| COc1cnc(-c2nnn(C)n2)c2[nH]cc(C(=O)C(=O)N3CCN(C(=O)c4ccccc4)CC3)c12 | trypan blue | >100 µM |
| CC(C)C1CN(C(=O)C(=O)c2c[nH]c3cccc(F)c23)CCN1C(=O)c1ccccc1 | XTT | 130 µM |
| Cc1ccc(C(=O)CCCCOc2ccc(C3=N[C@@H](C)CO3)cc2)s1 |  | 13 µM |
| CC1CN(C(=O)C(=O)c2c[nH]c3cccc(F)c23)CCN1C(=O)c1ccccc1 | XTT | >300 µM |
| CCC(Sc1ncnc2c1cnn2COCC(O)CO)C(N)=O |  | >400 µg/mL |
| CCOC(=O)[C@@]1(C)CC[C@]2(C)CC[C@]3(C)C(=CC(=O)[C@@H]4[C@@]5(C)CC/C(=N\OCc6ccc(C#N)cc6)C(C)(C)[C@@H]5CC[C@]43C)[C@@H]2C1 | MTT | >100 µM |
| C[C@@H]1CN(C(=O)C(=O)c2c[nH]c3c(-n4nc5ccccc5n4)cc(Cl)nc23)CCN1C(=O)c1ccccc1 | trypan blue | >100 µM |
| Clc1ccc(CCCCCOc2ccc(C3=NCCO3)cc2)s1 |  | 71 µM |
| CCOC(=O)[C@@]1(C)CC[C@]2(C)CC[C@]3(C)C(=CC(=O)[C@@H]4[C@@]5(C)CC/C(=N\OCc6cnc(Cl)s6)C(C)(C)[C@@H]5CC[C@]43C)[C@@H]2C1 | MTT | 15.36 µM |
| NC(=O)CSc1ncnc2c1cnn2COCCO |  | >400 µg/mL |
| CCS(=O)(=O)c1ccc(NCc2ccc(Cl)cc2)nc1C#N |  | >10 µg/mL |
| Cc1ccc(C(=O)CCCCOc2ccc(C3=N[C@H](C)CO3)cc2)s1 |  | 13 µM |
| CC1CN(C(=O)c2ccccc2)CCN1C(=O)C(=O)c1c[nH]c2cccc(F)c12 | XTT | >300 µM |
| COc1ccc(CNc2cc(=O)n(O)c3ncccc23)cc1 |  | 0.09 µM |
| COc1cnc(-n2ncnc2C)c2[nH]cc(C(=O)C(=O)N3CCN(C(=O)c4ccccc4)[C@H](C)C3)c12 | trypan blue | >100 µM |
| CCOC(=O)[C@@]1(C)CC[C@]2(C)CC[C@]3(C)C(=CC(=O)[C@@H]4[C@@]5(C)CC/C(=N\OCc6ccc(C(F)(F)F)cc6)C(C)(C)[C@@H]5CC[C@]43C)[C@@H]2C1 | MTT | >100 µM |
| Cc1ccc(C(=O)CCCCOc2ccc(C3=NCCO3)cc2)cc1 |  | >296 µM |
| Cc1ccc(C(=O)CCCCOc2ccc(C3=NCC(C)O3)cc2Cl)s1 |  | >265 µM |
| COc1cnc(-n2ccc(C)n2)c2[nH]cc(C(=O)C(=O)N3CCN(C(=O)c4ccccc4)CC3)c12 | trypan blue | >100 µM |
| CC(C)CS[C@@H]1C[C@H](n2cnc3c(N)ncnc32)[C@@H](O)[C@H]1O |  | 80–400 µg/mL |
| O=C(Nc1ccc(Oc2ccccc2)nc1)c1c(O)c2cccnc2n(O)c1=O |  | <100 µM |
| CCCCCCCCCC(C)=O | trypan blue | 42 µg/mL |